Data on 12 molecules can be found in the supplement of paper PMC9931576.

Human monoclonal antibodies against the spike receptor-binding domain (heavy:light variable regions). IC50 against pseudoviruses bearing the spike of naturally observed variants; lower = stronger; >10 µg/ml means not reached at the top dose. No active / inactive call. The stated detection limit is 0.0005 µg/ml; values near or below 0.001 µg/ml lie at the floor of the assay.

Holding throughout (experiment): pseudovirus neutralization IC50; higher = weaker neutralization
The target of assay [1] is SARS-CoV-2 Omicron BA.1 spike pseudovirus. As for the experimental part: (§1)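 Single-round VSV luciferase pseudovirus mixed with antibody dilutions for 1 h and put on Huh-7 cells for about a day; IC50 from the dose curve.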
The target in assay [2] is SARS-CoV-2 Omicron BA.2 spike pseudovirus. The procedure: as §1
Assay [3] concerns the target SARS-CoV-2 Omicron BA.2.75 spike pseudovirus. As for the experimental part: as §1
Assay [4] deals with SARS-CoV-2 Omicron BA.5 spike pseudovirus. As for the experimental part: as §1
In assay [5] the target is SARS-CoV-2 Omicron BQ.1.1 spike pseudovirus. As for the experimental part: as §1
Assay [6] deals with SARS-CoV-2 Omicron XBB spike pseudovirus. The procedure:
as §1

Assay [7] concerns the target SARS-CoV-2 early D614G spike pseudovirus. As for the experimental part:
as §1

B1: BD55-5466 (protein)
chain 1: EVQLVESGGGLVKPGGSLRLSCSASGFTFSSYTLGWVRQAPGKGLEWVSSISGSSTFIFYADSVQGRFTISRDNAKNSLYLQMNSLRAEDTAVYYCTRNFDVLTAYADAEYFQHWGQGTLVSVSS
chain 2: EIVLTQSPAMLSLSPGERATLSCRASQSVDTYLAWYQQKPGQAPRLLIYDASNRATGIPARFSGSGSGTDFTLTISSLEPEDFAVYYCQQRTNWPPYTFGQGTKLEIK
Regarding B1, the “pseudovirus neutralization IC50” value in assay [1] came to 1.02 µg/mL; in assay [2], 5.97 µg/mL; in assay [3], 2.77 µg/mL; in assay [4], 4.53 µg/mL; in assay [5], 3.16 µg/mL; in assay [6], 3.96 µg/mL. Besides, in assay [7], the “pseudovirus neutralization IC50” value is 0.269 µg/mL.

B2: BD55-5477 (protein)
chain 1: QVTLKESGPVLVKPTETLTLTCTVSGFSLSDARMGVSWIRQPPGKALEWLAHIFSNDEKSYSTSLTSRLTISKDTSKSQVVLTMTNMDPVDTGTYYCARSQGGWVMEDYYYYMDVWGKGTTVTVSS
chain 2: EIVMTQSPATLSVSPGERATFSCRASQSLTRNLAWFQQKPGQAPRLLIYGSSTRATGIPARFSGSGSGTEFTLTISSLQSEDFAVYYCQHYNNWPPTWTFGQGTKVEIK
Turning to B2, the “pseudovirus neutralization IC50” value in assay [1] is 0.0212 µg/mL; in assay [2], 0.0559 µg/mL; in assay [3], 0.195 µg/mL; in assay [4] it was 0.0927 µg/mL; in assay [5] it was 0.9 µg/mL; in assay [6], 3.84 µg/mL. In addition, in assay [7], the “pseudovirus neutralization IC50” value was 0.00158 µg/mL.

B3: BD55-5473 (protein)
chain 1: QVQLQESGPGLVKPSETLSLTCTVSGASTSTFYWSWIRQPPGKGLEWIGYIFYSGSTNYNPSLKSRVTMSVDTSKNQFSLNLSSVTAADTAVYYCARECGGDCYSMQAFDIWGQGTMVTVSS
chain 2: SYELTQPPSVSVSPGQTARITCSGDALPNQYVYWYQQRPGQAPVLVIYKDTERPSGIPGRFSGSSSGTTVTLTISGVQAEDEADYYCQSTDSGGIYGKRVFGGGTKLTVL
For B3, the “pseudovirus neutralization IC50” value in assay [1], in assay [2], in assay [3], in assay [4], in assay [5] and in assay [6] was more than 10 µg/mL in each case. Further, the “pseudovirus neutralization IC50” value in assay [7] worked out at 0.664 µg/mL.

B4: BD55-5472 (protein)
chain 1: QITLRESGPTLVKPTQTLTLTCTFSGFSVNKNGVAVGWIRQPPGKALEWLALIYWDDEKRYSPLLKTRLTITKDTSKNQVVLTMTNMDPVDTATYYCAHRPDLDTDMVVVDAFDVWGQGTMVTVSS
chain 2: QSVLTQPPSASGTPGQRVTISCSGSSSNIGRNAVNWYQQLPGTAPKLLIYNNNHRPSGVPDRFSGSKSGTSASLAISGLQSEDEADYYCASWDDSLSGVLFGGGTKLTVL
Take B4: the “pseudovirus neutralization IC50” value in assay [1] came out at 0.512 µg/mL; in assay [2], 0.732 µg/mL; in assay [3], 0.898 µg/mL; in assay [4] it was 0.7 µg/mL; in assay [5], 0.764 µg/mL; in assay [6], 0.97 µg/mL. The “pseudovirus neutralization IC50” value in assay [7] turned out to be 0.108 µg/mL.

B5: BD55-5435 (protein)
chain 1: EVQLVESGGGPVKPGGSLRLSCAASGFTFSASGMNWVRQAPGKGLEWVSSISSSGSLVFYADSVKGRFTMSRDNAKNSLYLQMNSLKAEDTAVYYCARTDSSAYDHYFDYWGQGTLVTVSS
chain 2: DIQMTQSPSSLSASVGDRVTISCRASQGIRNSLAWYQQKAGKAPKLLLHGSSRLQSGVPSRFSGSGSGTDYTLTISSLQPEDFATYYCQQYYETPQVTFGQGTKLEIK
Regarding B5, the “pseudovirus neutralization IC50” value in assay [1], in assay [2], in assay [3], in assay [4], in assay [5] and in assay [6] was more than 10 µg/mL in each case. The “pseudovirus neutralization IC50” value in assay [7] is more than 10 µg/mL.

B6: BD55-5417 (protein)
chain 1: QLHLQESGPGLVKPSETLSLTCAVSGDSLRYSSYWWGWIRQPPGKGPEWIASIWYSGSSYSNPSLKSRVTISVDTSKNQFSLMLSSVTAADTAVYYCARGLLQEPVSDWLSSYLNWFDPWGQGILVTVSS
chain 2: EIVVTQSPATLSVSPGERATLSCRASQSVSSDLAWYQQKRGQAPRLLIYGASTRAAGIPDRFSGSGSGTEFTLTINSLESEDFAVYYCQQYNDFNTFGQGTKVEIK
As for B6, the “pseudovirus neutralization IC50” value in assay [1], in assay [2], in assay [3], in assay [4], in assay [5] and in assay [6] was more than 10 µg/mL each time. In assay [7], the “pseudovirus neutralization IC50” value is more than 10 µg/mL.

B7: BD55-5470 (protein)
chain 1: QLQLQGSGPGLVKPSETLSLTCTVSGGSISSSSHYWGWIRQPPGKGLEWIGSIYYSGSTRYNPSLKSRLTMSVDTSKNQFSLKLRSVIAADSAVYYCARLLVRGAIMQPEDYDYGMDVWGQGTTVTVSS
chain 2: DIQMTQSPSTLSASVGDRVTITCRASQSISHWLAWYQQKPGRAPKLLIYKASNLESGVPSRFSGSGSGTEFTLTISSLQPDDFATYYCQEYYSLWTFGQGTKVEIK
As for B7, the “pseudovirus neutralization IC50” value in assay [1], in assay [2], in assay [3], in assay [4], in assay [5] and in assay [6] was more than 10 µg/mL in each case. Moreover, in assay [7], the “pseudovirus neutralization IC50” value came out at 0.561 µg/mL.

B8: BD55-5418 (protein)
chain 1: QITLKESGPTLVKPTQTLTLTCTFSGFSLSTTGVGVSWIRQPPGKALEWLAVIYWDDDKHYSPSLKSRLTITKDTSKNQVVLTMTNMDPVDTATYYCAHLEWPKGYFYYYFGMDVWGQGTTVTVSS
chain 2: EIVLTQSPGTLSLSPGERATLSCRASQSVTSTYLAWYQQKPGQAPRLLIYSASSRATGIPDRFSGSGSGTDFTLTISRLEPDDFAVYYCHLYGSSLYTFGQGTKVEIK
As to B8, the “pseudovirus neutralization IC50” value in assay [1] is 5.49 µg/mL; in assay [2] it was 9.55 µg/mL; in assay [3] it was 6.8 µg/mL; in assay [4], 7.51 µg/mL; in assay [5] it was 3.14 µg/mL; in assay [6] it was 4.9 µg/mL. The “pseudovirus neutralization IC50” value in assay [7] stood at 3.29 µg/mL.

B9: BD55-1061 (protein)
chain 1: EVQLVESGGGLIQPGGSLRLSCVVSGFTVSRNYMSWVRQAPGKGLEWVSLIHPGGSTFFAESVKDRFTMSRDNYKNTLYLQMDSLGVEDTAVYYCARMPYYANLGSESWGQGTLVTVSS
chain 2: DIQMTQTPSSLSAFVGDRVTITCQARQDISKYLNWYQQKPGKAPKLLIYDASNLETGVPSRFSGSGSGTNFTFTISSLQPEDVATYYCQHYDNVPITFGQGTRLEIK
As for B9, the “pseudovirus neutralization IC50” value was 0.0145 µg/mL in assay [1]; 0.0158 µg/mL in assay [2]; 0.357 µg/mL in assay [3]; 0.0845 µg/mL in assay [4]; more than 10 µg/mL in assay [5]; more than 10 µg/mL in assay [6]. Besides, in assay [7], the “pseudovirus neutralization IC50” value was found to be 0.00714 µg/mL.

B10: BD55-1065 (protein)
chain 1: QVQLVQSGAEVKQPGSSVRVSCRASGDTFNNYAINWVRQAPGQGLEWMGRIIPIVAATSYAQRFQGRVTMTADKSTSTAHMELSTLRSDDTAVYFCATSRYSAGYLYYFDYWGQGTLVTVSS
chain 2: EIVLTQSPGTLSLSPGERVTLSCRASQSISSDYLAWYQQKPGQGPRLLIYAASSRATGIPDRFSGSGSGTDFTLTVSRLEPEDFAVYYCQQYATSRTFGQGTKVEIK
For B10, the “pseudovirus neutralization IC50” value in assay [1], in assay [2], in assay [3], in assay [4], in assay [5] and in assay [6] was more than 10 µg/mL in each case. The “pseudovirus neutralization IC50” value in assay [7] amounted to 0.00132 µg/mL.

B11: BD55-5448 (protein)
chain 1: EVQLVESGGGVVQPGGSLRLSCVASGFTFDDYDMHWVRQAPGKGLEWVSLINGDGHSPYYADSVKGRFTISRDNRKNSLYLQMNSLRSEDTALYYCGKDISCSGGSCKWAQTLIDHWGQGTLVTVSS
chain 2: QSVLTQPPSVSGAPGQRVTIPCTGSSSNIGAGYDVHWYQQLPGTAPKLLIFGNTNRPSGVPDRFSGSKSGTSASLAITGLQAEDEADYYCQSYDSTQSGSWVFGGGTKLTVL
On to B11, for which the “pseudovirus neutralization IC50” value in assay [1], in assay [2], in assay [3], in assay [4], in assay [5] and in assay [6] was more than 10 µg/mL in each case. In addition, the “pseudovirus neutralization IC50” value in assay [7] was determined as 1.31 µg/mL.

B12: BD55-5457 (protein)
chain 1: QAQLVQSGAEVKKPGASVKVSCKASGYTLTSYGFSWVRQAPGQGLEWMGWINSYNGNTKITQKFQGRVSMTTDTSTSTAYMEVRSLRSDDTAVYYCARGYEYYDMLTGDYTFHYNAMDVWGQGTTVTVSS
chain 2: EIVLAQSPGTLSLSPGHRATLSCRASQSITNNFLAWYQQKPGQAPRLLIYGASSRATGIPDRFSGSGSGTDFTLTISRLEPEDFAVYYCQQYGGSVTFGGGTKVEIK
Take B12: the “pseudovirus neutralization IC50” value in assay [1], in assay [2], in assay [3], in assay [4], in assay [5] and in assay [6] was more than 10 µg/mL in each case. Moreover, the “pseudovirus neutralization IC50” value in assay [7] was more than 10 µg/mL.
